Anti-infective test results gathered from many reports (values: NIAID ChemDB through PubChem).

Common to all: enzyme or target tests

ICn is the concentration giving n% inhibition.

structure | protein | measure | dose | agent | value
O=C(O)c1cc2nc(-c3ccccc3Cl)cc(-c3cccc(Cl)c3)n2n1 | RNA-dependent RNA polymerase | IC50 | - | Hepatitis C virus | >10 µM
CNC(=O)c1c(-c2ccc(F)cc2)oc2cc(C)c(OC)cc12 | Nonstructural protein 5B | IC50 | - | Hepatitis C virus | ≤0.5 µM
O=C(O)c1ccc2c(c1)nc(-c1ccc3nc(-c4ccccc4)cc(Oc4ccccc4)c3c1)n2C1CCCCC1 | NS5B polymerase | inhibition | 33 µM | Hepatitis C virus | 101%
COc1nc(Nc2ccc3cn[nH]c3c2)nc(NN2CCN(C)CC2)n1 | DNA polymerase | IC50 | - | Hepatitis B virus | 0.1–1 µg/mL
CCC(NC(=O)Nc1cccc(-c2nc(C(=O)O)c(O)c(=O)[nH]2)c1)c1ccccc1 | HCV polymerase | IC50 | - | Hepatitis C virus | <100 µM
O=C(O)c1ccc2c(c1)nc(-c1ccc3nc(-c4cc(F)ccc4-c4ccc(Cl)cc4)ccc3c1)n2C1CCCCC1 | NS5B polymerase | inhibition | 100 µM | Hepatitis C virus | 101%
CNC(=O)c1c(-c2ccc(F)cc2)oc2cc(N(C)S(C)(=O)=O)c(OCC(=O)OC(C)(C)C)cc12 | Nonstructural protein 5B | IC50 | - | Hepatitis C virus | ≤0.5 µM
Cc1nn2c(C3CCCCC3)c(-c3ccoc3)cnc2c1C(=O)N[C@@H](Cc1ccc(O)cc1)C(=O)O | RNA-dependent RNA polymerase | IC50 | - | Hepatitis C virus | <1 µM
O=C(NCc1cn2ccccc2n1)Nc1cscc1-c1nc(C(=O)O)c(O)c(=O)[nH]1 | HCV polymerase | IC50 | - | Hepatitis C virus | <25 µM
CNC(=O)c1c(-c2ccc(F)cc2)oc2cc(N(C)S(C)(=O)=O)c(OCCn3nc(C)cc3C)cc12 | Nonstructural protein 5B | IC50 | - | Hepatitis C virus | ≤0.5 µM
O=C(O)c1cnn2c(-c3ccc(Cl)cc3)c(-c3ccccc3)cnc12 | RNA-dependent RNA polymerase | IC50 | - | Hepatitis C virus | >10 µM
O=C(Nc1cscc1-c1nc(C(=O)O)c(O)c(=O)[nH]1)c1ccc(Br)o1 | HCV polymerase | IC50 | - | Hepatitis C virus | <25 µM
O=C(O)c1cc2nc(-c3ccc(Cl)cc3)cc(N3CCc4ccccc4C3)n2n1 | RNA-dependent RNA polymerase | IC50 | - | Hepatitis C virus | >10 µM
O=C(O)c1nc(-c2ccccc2NS(=O)(=O)c2sc3ccccc3c2Cl)[nH]c(=O)c1O | HCV polymerase | IC50 | - | Hepatitis C virus | <100 µM
O=C(O)c1cnn2c(-c3ccccc3Cl)cc(-c3ccccc3)nc12 | RNA-dependent RNA polymerase | IC50 | - | Hepatitis C virus | >10 µM
Nc1cc(-c2ccccc2)sc1-c1ccc2cc(-c3nc4cc(C(=O)O)ccc4n3C3CCCCC3)ccc2n1 | NS5B polymerase | inhibition | 33 µM | Hepatitis C virus | 101%
CCN(C)c1cc2oc(-c3ccc(F)cc3)c(C(=O)NC)c2c(Cl)c1OC | Nonstructural protein 5B | IC50 | - | Hepatitis C virus | ≤0.5 µM
CC1CCC(C(=O)N(c2cc(-c3ccccc3)sc2C(=O)O)C(C)C)C(C)C1 | NS3 ATPase | IC50 | - | Hepatitis C virus | <5 µM
O=C(O)c1nc(-c2ccccc2NS(=O)(=O)c2cc(Cl)ccc2Cl)[nH]c(=O)c1O | HCV polymerase | IC50 | - | Hepatitis C virus | <100 µM
Cc1ccc(C(=O)N(Cc2ccc([N+](=O)[O-])cc2)c2cc(-c3ccccc3)sc2C(=O)O)cc1 | NS3 ATPase | IC50 | - | Hepatitis C virus | <5 µM
O=C(Nc1cscc1-c1nc(C(=O)O)c(O)c(=O)[nH]1)NC(Cc1ccccc1)c1ccccc1 | HCV polymerase | IC50 | - | Hepatitis C virus | <25 µM
O=Cc1cnn2c(C3CCCCC3)c(-c3ccc(OCc4ccccc4)cc3)cnc12 | RNA-dependent RNA polymerase | IC50 | - | Hepatitis C virus | >10 µM
COc1nc(NCCc2ccccn2)nc(Nc2ccc3[nH]ncc3c2)n1 | DNA polymerase | inhibition | 0.1 µg/mL | Hepatitis B virus | 39%
O=C(O)c1ccc2c(c1)nc(-c1ccc3nc(-c4ccc5c(c4)OCO5)ccc3c1)n2C1CCCCC1 | NS5B polymerase | inhibition | 33 µM | Hepatitis C virus | 98.44%
O=C(O)c1sc(-c2ccccc2)cc1N(Cc1ccc(Cl)cc1)C(=O)C1CC1 | NS3 ATPase | IC50 | - | Hepatitis C virus | 5–20 µM
O=C(O)c1ccc2c(c1)nc(-c1ccc3nc(-c4cc(C(=O)N5CCCC5)ccc4-c4ccc(Cl)cc4)cnc3c1)n2C1CCCCC1 | NS5B polymerase | inhibition | 100 µM | Hepatitis C virus | 101%
O=C(O)c1cnn2c(C3CCCCC3)c(-c3ccc(-c4cccc(Cl)c4)cc3)cnc12 | RNA-dependent RNA polymerase | IC50 | - | Hepatitis C virus | 1–10 µM
CC1CCC(C(=O)N(C)c2cc(-c3ccccc3)sc2C(=O)O)CC1 | NS3 ATPase | IC50 | - | Hepatitis C virus | <5 µM
NC(=O)CNC(=O)c1ccc(-c2ccccc2)c(-c2ccc3cc(-c4nc5cc(C(=O)O)ccc5n4C4CCCCC4)ccc3n2)c1 | NS5B polymerase | inhibition | 100 µM | Hepatitis C virus | 99.42%
Cc1c(-c2ccccc2)sc(C(=O)O)c1N(C(=O)c1ccc(Cl)cc1Cl)C(C)C | NS3 ATPase | IC50 | - | Hepatitis C virus | 5–20 µM
O=C(O)c1ccc2c(c1)nc(-c1ccc3nc(-c4ccccc4-c4ccncc4)ccc3c1)n2C1CCCCC1 | NS5B polymerase | inhibition | 33 µM | Hepatitis C virus | 96.18%
Cc1ccccc1S(=O)(=O)Nc1cc(C(=O)c2ccccc2)sc1C(=O)O | NS3 ATPase | IC50 | - | Hepatitis C virus | 5–20 µM
CNC(=O)CN1CCN(c2nc(Nc3ccc4[nH]ncc4c3)nc(OC)n2)CC1 | Nonstructural protein 5B | inhibition | 0.1 µg/mL | Hepatitis C virus | 4%
O=C(O)c1nc(-c2ccc(S(=O)(=O)Cc3ccccc3Oc3ccc(Cl)cc3Cl)cc2)[nH]c(=O)c1O | HCV polymerase | IC50 | - | Hepatitis C virus | <100 µM
COc1nc(NCCCn2ccnc2)nc(Nc2ccc3[nH]ncc3c2)n1 | Nonstructural protein 5B | inhibition | 10 µg/mL | Hepatitis C virus | 72%
O=C(O)c1ccc2c(c1)nc(-c1cc3ccc(-c4ccccc4-c4ccc(Cl)cc4)nc3cc1F)n2C1CCCCC1 | NS5B polymerase | inhibition | 33 µM | Hepatitis C virus | 99.29%
Cc1ccc(C(=O)N(C)c2cc(-c3cc(F)cc(F)c3)sc2C(=O)O)cc1 | NS3 ATPase | IC50 | - | Hepatitis C virus | <5 µM
O=C(O)c1cc2nc(-c3ccccc3)cc(-c3ccccc3Cl)n2n1 | RNA-dependent RNA polymerase | IC50 | - | Hepatitis C virus | >10 µM
COc1nc(NCCO)nc(Nc2ccc3[nH]ncc3c2)n1 | DNA polymerase | inhibition | 0.01 µg/mL | Hepatitis B virus | 22%

The first 3 rows once more:

structure,protein,measure,dose,agent,value
O=C(O)c1cc2nc(-c3ccccc3Cl)cc(-c3cccc(Cl)c3)n2n1,RNA-dependent RNA polymerase,IC50,-,Hepatitis C virus,>10 µM
CNC(=O)c1c(-c2ccc(F)cc2)oc2cc(C)c(OC)cc12,Nonstructural protein 5B,IC50,-,Hepatitis C virus,≤0.5 µM
O=C(O)c1ccc2c(c1)nc(-c1ccc3nc(-c4ccccc4)cc(Oc4ccccc4)c3c1)n2C1CCCCC1,NS5B polymerase,inhibition,33 µM,Hepatitis C virus,101%

Lines come from different laboratories, so protocols vary. Percent inhibition refers to the dose given; in toxicity tests it is the harm to the cells. Blank or dashed fields: not listed here. Two numbers with a dash give a range or band.